Measured values: patent US20160361334A1, “APPLICATION OF BAICALIN IN PREPARATION OF DRUG FOR TREATING RICIN POISONING” (published 2016)

Molecular target: ricin (Ricinus communis, UniProt P02879)
Experiment: Crystal structure of the complex of ricin with baicalin (mechanism and target validation)
Details: pendant drop method; binding sites Arg189, Thr190, Arg193, Tyr194, Arg235 and Arg258

SMILES: O=C(O)[C@H]1O[C@@H](Oc2cc3oc(-c4ccccc4)cc(=O)c3c(O)c2O)[C@H](O)[C@@H](O)[C@@H]1O
- Effect of baicalin on ricin (crystal structure of the complex): induce ricin to form a polymer
